Tests used:
[1] = system: HIV-1 Bal; format: cell-based; settings: Table 1; B-R5; TZM-bl cells, 48 h, luciferase; means of two experiments
Procedure, shortened: (§1)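 Inhibition of infection was measured in TZM-bl cells bearing an HIV LTR-driven luciferase gene. Cells in 30 μg/mL DEAE dextran were exposed to diluted conjugates, infected (50, 100 or 200 TCID50), and cultured 48 h before luminescence was recorded relative to compound-free wells.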

[2] = system: HIV-1 MP568 (CRF02); format: cell-based; settings: Table 1; AG-R5; TZM-bl cells, 48 h, luciferase; means of two experiments
[3] = system: HIV-1 VI1888 (CRF01); format: cell-based; settings: Table 1; AE-R5; TZM-bl cells, 48 h, luciferase; means of two experiments
[4] = system: HIV-1 VI824; format: cell-based; settings: Table 1; D-R5; TZM-bl cells, 48 h, luciferase; means of two experiments
[5] = system: HIV-1 VI829; format: cell-based; settings: Table 1; C-R5; TZM-bl cells, 48 h, luciferase; means of two experiments
Procedure, shortened: as §1

[6] = system: HIV-1 p246F10; format: cell-based; settings: Table 1; T/F C-R5; TZM-bl cells, 48 h, luciferase; means of two experiments
[7] = system: HIV-1 pWITO.c/2474; format: cell-based; settings: Table 1; T/F B-R5; TZM-bl cells, 48 h, luciferase; means of two experiments
[8] = system: HIV-1 pZM247Fv2; format: cell-based; settings: Table 1; T/F C-R5; TZM-bl cells, 48 h, luciferase; means of two experiments
[9] = Pharmacokinetics in vaginal fluid after vaginal gel application; format: in vivo, cynomolgus macaques (Macaca fascicularis); settings: bioassay against HIV-1 IIIB in TZM-bl cells
Experimental: A PK study of the mCD4.1-PS1 was conducted in naïve female cynomolgus macaques pre-treated intramuscularly with 30 mg medroxyprogesterone acetate (Depo-Provera, Pfizer) 4–5 weeks before the gel application. Two ml of HEC gels containing mCD4.1-PS1 at 36, 144 or 600 μM, were applied into the vaginal cavity with a French catheter connected to ready-to-use syringe (two females per group). Vaginal fluids were collected before and at various time points after gel administration, by placing pre-weighted Weck-Cel sponges (Beaver Visitec International) into the vagina. Upon removal, sponges were reweighed to calculate the collected vaginal fluid weight and sponge contents were eluted in PBS containing 0.25 M NaCl and protease inhibitors (Calbiochem). Eluates were stored at −80 °C prior to analysis. The mCD4.1-PS1 activity remaining in these samples, diluted to at least 3% to eliminate any cytotoxicity, was measured in TZM-bl cells using the HIV-1 IIIB strain that constitutes an excellent reporter of the compound activity. Animals BL133 and BO731 included in the PK study at 36 μM were re included in the PK study at 144 μM.
CVL were cleared from any cell-debris by centrifugation at 1,500 rpm during 10 minutes, prior to freezing at −80 °C. After thawing, TMZbl cells (10^4 cells/well) were incubated with a serial 10-fold dilution (starting from 3% down to 0.00003%) of each CVL for 30 minutes. Subsequently, 50 TCID50 of IIIB virus was added to the cells. All conditions were done in triplicates. The plates were incubated for 48 hours (37 °C, 5% CO2). Subsequently, 120 μL of supernatants were removed, 75 μl of the luciferase substrate Steadylite (Perkin Elmer, Life Sciences, Zaventem, Belgium) were added to the wells and the plates were incubated at room temperature on an orbital shaker for 10 minutes. Next, the luciferase activity was measured using a TriStar LB941 luminometer (Berthold Technologies GmbH & Co. KG., Bad Wildbad, Germany) and expressed as relative light units (RLU) and expressed as a percentage of that in positive control wells. IC50 were calculated in GraphPad Prism 5.03 using non-linear regression (GraphPad Software, San Diego, CA, USA) and used to estimate the compound concentrations in CVL.

[10] = 2 ml 1.5% HEC gel at 600 μM, two animals

CC(C)C[C@@H]1NC(=O)CNC(=O)[C@H](CC(C)C)NC(=O)[C@H](CO)NC(=O)[C@H](CO)NC(=O)[C@@H]2CSSC[C@@H](C(=O)N[C@H](C(N)=O)C(C)C)NC(=O)[C@H](C)NC(=O)[C@@H]3CSSC[C@H](NC(=O)[C@H](CCCCNC(=O)CCOCCOCCNC(=O)CCN4C(=O)CC(SCCC(=O)NCCCC(=O)N[C@@H](CO)C(=O)N[C@@H](Cc5ccc(OS(=O)(=O)O)cc5)C(=O)N[C@@H](CC(=O)O)C(=O)N[C@@H](Cc5ccc(OS(=O)(=O)O)cc5)C(=O)N[C@@H](CO)C(=O)N[C@@H](Cc5ccc(OS(=O)(=O)O)cc5)C(=O)N[C@@H](CC(=O)O)C(=O)N[C@@H](Cc5ccc(OS(=O)(=O)O)cc5)C(=O)N[C@@H](CO)C(=O)N[C@@H](Cc5ccc(OS(=O)(=O)O)cc5)C(=O)N[C@@H](CC(=O)O)C(=O)N[C@@H](Cc5ccc(OS(=O)(=O)O)cc5)C(=O)N[C@@H](CO)C(=O)O)C4=O)NC(=O)[C@H](Cc4c[nH]cn4)NC(=O)[C@H](CC(C)C)NC(=O)[C@H](CC(N)=O)NC(=O)CCSSC[C@H](NC(=O)[C@H](CCCNC(=N)N)NC(=O)CNC(=O)[C@H](CC(C)C)NC1=O)C(=O)N[C@@H](C)C(=O)NCC(=O)N[C@@H](CO)C(=O)N[C@@H](Cc1ccc(-c4ccccc4)cc1)C(=O)N3)C(=O)N[C@@H](CCC(N)=O)C(=O)N[C@@H](CC(C)C)C(=O)N[C@@H](CCCNC(=N)N)C(=O)N2 (stereo partly shown) [mCD4.1-PS1]
IC50 [1]: 0.54 nM
IC50 [2]: 310 nM
IC50 [3]: 1100 nM
IC50 [4]: 40 nM
IC50 [5]: 16 nM
IC50 [6]: 723 nM
IC50 [7]: 6.9 nM
IC50 [8]: 3700 nM
active concentration in vaginal fluid, after the first two hours ([9]; 2 ml 1.5% HEC gel at 36 μM): below 1 μM
active concentration in vaginal fluid, first two hours ([9]; 2 ml 1.5% HEC gel at 36 μM, only in one animal of two): approx. 8 μM
active concentration in vaginal fluid after 2 h ([9]; 2 ml 1.5% HEC gel at 144 μM, two animals): above 25 μM
active concentration in vaginal fluid at 24 h [9, 10]: approx. 3.5 μM
active concentration in vaginal fluid during the first 6 h [9, 10]: above 150 μM

— PMC5056392, “CD4-mimetic sulfopeptide conjugates display sub-nanomolar anti-HIV-1 activity and protect macaques against a SHIV162P3 vaginal challenge” (Scientific Reports, 2016)
